## Sequence variants of PSTVd loop 6 after infection

Values reported by Wu et al. 2024 (doi:10.1371/journal.ppat.1012142).

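A pool of all variants was put on leaves of three Nicotiana benthamiana plants. Progeny were sequenced from the inoculated region (day 5), the margin of the inoculated leaf (day 10) and systemic leaves (day 12).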

The pool varies loop 6 of the PSTVd intermediate strain in the pattern UNNNCGNNNG; wild type is UGACCGCGAG (upper and lower strand joined, each 5' to 3', the first 5 letters being the upper strand, closing pairs included).

Numbers give reads per thousand; 0 = not seen among the reads, higher = more abundant. Each site shows the three plants. "Pool" is the share in the plasmid pool used as inoculum, on the same scale. The inoculated region was read from the minus strand, the other sites from the plus strand.

| sequence | pool | inoculated region | leaf margin | systemic leaves |
|---|---|---|---|---|
| UAGGCGGCCG | 0.327 | 0.156 0.0898 0.0553 | 0.0552 0 0 | 0 0 0 |
| UCUUCGUGCG | 0.196 | 0.122 0.144 0.0369 | 0 0.0252 0.0232 | 0 0 0 |
| UAUGCGAUAG | 0.261 | 0.226 0.144 0.0369 | 0 0 0.232 | 0 0 0 |
| UGUCCGAUGG | 0.196 | 0.139 0.0898 0.111 | 0 0 0 | 0 0 0 |
| UCUCCGUAAG | 0.157 | 0.0521 0.0898 0.129 | 0 0 0.0232 | 0 0 0 |
| UGAGCGACAG | 0.261 | 0.139 0.144 0.0922 | 0 0 0 | 0 0 0 |
| UUUGCGUGCG | 0.235 | 0.139 0.0539 0.0553 | 0 0 0 | 0 0 0.0205 |
| UAUCCGCGGG | 0.327 | 0.156 0.0539 0.166 | 0 0 0 | 0 0 0 |
| GGACCGUCUG | 0.0131 | 0.0348 0.0180 0 | 0 0 0 | 0 0 0 |
| UAUACGAGAG | 0.340 | 0.122 0.126 0.111 | 0 0.0252 0.0232 | 0 0 0 |
| UUAACGGAGG | 0.275 | 0.643 0.736 0.553 | 0.0276 0.0504 0.0928 | 0 0 0 |
| UUAGCGCCAG | 0.183 | 0.174 0.144 0.0553 | 0 0 0 | 0 0 0 |
| UUUACGGAUG | 0.183 | 0.104 0.126 0.129 | 0.0276 0 0 | 0 0 0 |
| UGGCCGGGUG | 0.261 | 0.209 0.144 0.166 | 0.0552 0 0 | 0 0 0 |
| UUCCCGGAGG | 0.170 | 0.0869 0.0719 0.0369 | 0.0276 0 0 | 0 0 0 |
| UUUGCGCCAG | 0.0784 | 0.104 0.0898 0.0738 | 0 0 0 | 0 0 0 |
| UGUUCGAUUG | 0.379 | 0.156 0.0180 0.0738 | 0.0276 0 0.0232 | 0 0 0 |
| UAUCCGAGCG | 0.209 | 0.209 0.0539 0.0738 | 0 0 0 | 0 0 0 |
| UUGGCGCUUG | 0.497 | 0.0869 0.0719 0.148 | 0 0 0.0232 | 0 0 0 |
| UGGUCGUGUG | 0.288 | 0.174 0.126 0.0369 | 0 0 0 | 0 0 0 |
| UACGCGCAAG | 0.157 | 0.0521 0.108 0.203 | 0 0 0.0232 | 0 0 0 |
| UCAGCGCCAG | 0.0915 | 0.156 0.0539 0.0553 | 0 0 0 | 0 0 0 |
| UAUUCGAUCG | 0.235 | 0.156 0.126 0.0553 | 0 0 0 | 0 0 0 |
| UUGACGAUUG | 0.301 | 0.0869 0.0719 0.148 | 0.0276 0 0 | 0 0 0 |
| UAGACGGCUG | 0.288 | 0.0869 0.0359 0.148 | 0.0276 0 0.0464 | 0 0 0 |
| UUGACGCGUG | 0.170 | 0.174 0.198 0.0922 | 0.0276 0 0.0464 | 0 0 0 |
| UAUCCGAGAG | 0.170 | 0.122 0.180 0.0922 | 0 0 0 | 0 0 0 |
| UCCACGUGUG | 0.105 | 0.0695 0.0898 0.0369 | 0 0 0.0232 | 0 0 0 |
| UCAGCGGAGG | 0.170 | 0.0521 0.0359 0.0738 | 0.0276 0 0 | 0 0 0 |
| UCCACGGUUG | 0.209 | 0.0869 0.108 0.0553 | 0 0 0 | 0 0 0 |
| UGCGCGUAUG | 0.248 | 0.122 0.0359 0.0922 | 0 0.177 0.0232 | 0 0 0 |
| UUAGCGCAUG | 0.288 | 0.104 0.126 0.0738 | 0 0 0.0232 | 0 0 0 |
| UCCACGGAGG | 0.222 | 0.226 0.0539 0.0922 | 0.0276 0 0 | 0 0 0 |
| UGACGGGUGG | 0.0131 | 0 0 0 | 0 0 0 | 0 0 0 |
| UGUCCGGACG | 0.222 | 0.0521 0.0539 0.111 | 0 0 0 | 0 0 0 |
| UAAGCGUGGG | 0.157 | 0.0695 0.0539 0.129 | 0 0 0.0232 | 0 0 0 |
| UAGACGGUUG | 0.314 | 0.104 0.126 0.0369 | 0 0 0.0232 | 0 0 0 |
| UGUACGCUGG | 0.301 | 0.0521 0.108 0.0553 | 0 0 0.0464 | 0 0 0 |
| UCGACGAUUG | 0.314 | 0.104 0.126 0.111 | 0 0 0 | 0 0 0 |
| UACGCGCCAG | 0.0915 | 0.0695 0.144 0.0553 | 0 0 0 | 0 0 0 |
| UCUGCGAAUG | 0.327 | 0.139 0.0898 0.0553 | 0 0 0.0232 | 0 0 0 |
| UGGGCGGCGG | 0.144 | 0.122 0.0898 0.0922 | 0 0 0 | 0 0 0 |
| UACCCGGCCG | 0.157 | 0.122 0.0359 0.0922 | 0 0 0.0232 | 0 0 0 |
| UGGCCGCUUG | 0.314 | 0.139 0.180 0.277 | 0.0276 0 0.0464 | 0 0 0 |
| UUCGCGAGUG | 0.301 | 0.0521 0.126 0.111 | 0 0 0 | 0 0 0 |
| UACGCGUACG | 0.196 | 0.209 0.0359 0.0369 | 0.0276 0 0.0464 | 0 0 0 |
| UGACCGGACG | 0.327 | 0.104 0.180 0.184 | 0.248 0.353 0.0696 | 0.0180 0.101 0.123 |
| UCAACGCACG | 0.157 | 0.695 0.754 0.516 | 0.0276 0 0.0696 | 0 0 0 |
| UCCCCGGAUG | 0.327 | 0.174 0.0719 0.0553 | 0.0828 0 0 | 0 0 0 |
| UUUUCGAAAG | 0.105 | 0.139 0.126 0.0553 | 0 0 0 | 0 0 0 |
| UGGCCGAUCG | 0.261 | 0.0348 0.180 0.111 | 0.0552 0 0 | 0 0 0 |
| UUAUCGACGG | 0.248 | 0.104 0.0180 0.129 | 0.0276 0 0.0232 | 0 0 0 |
| UUAUCGGGUG | 0.288 | 0.0695 0.0898 0.0738 | 0.0276 0 0.0232 | 0 0.0202 0 |
| UACACGCCCG | 0.261 | 0.122 0.0180 0.0553 | 0 0 0 | 0 0 0 |

The opening 3 entries, copied out:

| sequence | pool | inoculated region | leaf margin | systemic leaves |
|---|---|---|---|---|
| UAGGCGGCCG | 0.327 | 0.156 0.0898 0.0553 | 0.0552 0 0 | 0 0 0 |
| UCUUCGUGCG | 0.196 | 0.122 0.144 0.0369 | 0 0.0252 0.0232 | 0 0 0 |
| UAUGCGAUAG | 0.261 | 0.226 0.144 0.0369 | 0 0 0.232 | 0 0 0 |

With 36,220-57,551 reads a sample, very low values are single reads. For reference, wild type rose from 20.7 per thousand in the pool to 195, 198, 203 (inoculated region), 629, 591, 734 (leaf margin) and 942, 870, 868 (systemic leaves). Sequences that differ at fixed positions probably stem from PCR or sequencing errors, and defective variants can be carried along by functional ones.